Results of unrelated studies side by side (data: NIAID ChemDB).

Shared fields: tests in culture; organism: Candida albicans

ECn: concentration that inhibits the pathogen or its effect by n%.

smiles,method,measure,strain,conditions,value
S=C(S)n1nnc2ccccc21,broth dilution / absorbance,EC50,-,48 h,>50 µg/mL
Cc1ncc([N+](=O)[O-])n1CCN1C(=O)/C(=C/c2ccc(Cl)cc2)N=C1c1ccccc1,-,MIC,-,-,250 µg/mL
Cc1ccc(Nc2nnc(CCn3ncc4ccccc4c3=O)s2)cc1,-,MIC,ATCC 10231,-,128 µg/mL
C[C@@H](B1OC2CC3CC(C3(C)C)[C@@]2(C)O1)[C@@H](Cc1ccccc1)NC(=O)[C@@H](N)CCCCN,agar,MIC,-,-,≤500 µg/mL
Cc1ccc(-n2c(Cn3ncc4ccccc4c3=O)n[nH]c2=S)cc1,-,MIC,ATCC 10231,-,512 µg/mL
COc1ccc(C=NNC(=O)c2cnc3c(ccc4[nH]c(Cl)cc(C)c43)c2=O)cc1,broth dilution,MIC,-,-,500 µg/mL
CC1(C)C2CC3OB([C@H](Cc4ccccc4)[C@@H](Cc4ccccc4)NC(=O)[C@@H](N)CCCCN)O[C@]3(C)C1C2,agar,MIC,-,-,≤500 µg/mL
O=c1c2cccc(O)c2oc2cc(O)cc(O)c12,-,MIC,-,-,>25 µg/mL
O=C(O[C@@H]1COC(=O)c2cc(O)c(O)c(O)c2-c2c(cc(O)c(O)c2O)C(=O)OC1C1OC(=O)c2cc(O)c(O)c(O)c2-c2c(O)c(O)c(O)c3c2C(=O)OC1[C@H]3O)c1cc(O)c(O)c(O)c1,broth dilution,MIC100,SC5314,-,>580 µg/mL
Cc1ncc([N+](=O)[O-])n1CCNC(=S)Nc1ccccc1,-,MIC,-,-,62.5 µg/mL
O=c1c2ccccc2cnn1CCc1n[nH]c(=S)n1CCc1ccccc1,-,MIC,ATCC 10231,-,256 µg/mL
Cc1cc(Cl)[nH]c2ccc3c(=O)c(C(=O)NN4C(=O)C(Cl)C4c4ccccc4Cl)cnc3c12,broth dilution,MIC,-,-,100 µg/mL
C=C(C)[C@@H]1CC[C@]2(C(=O)O)CC[C@]3(C)[C@H](CC[C@@H]4[C@@]5(C)CC[C@H](O)C(C)(C)[C@@H]5CC[C@]43C)[C@@H]12,-,MIC,-,-,>25 µg/mL
Cc1ncc([N+](=O)[O-])n1CCN1C(=O)/C(=C/c2cccc(Cl)c2)N=C1c1ccccc1,-,MIC,-,-,125 µg/mL
COC1CC2CCC(C)C(O)(O2)C(=O)C(=O)N2CCCCC2C(=O)OC(C(C)CC2CCC(O)C(C)C2)CC(=O)C(C)/C=C(\C)C(O)C(O)C(=O)C(C)CC(C)/C=C/C=C/C=C/1C,-,MIC,ATCC11651,-,0.125 µg/mL
O=c1c2ccccc2cnn1Cc1nnc(Nc2ccc(Cl)cc2)s1,-,MIC,ATCC 10231,-,32 µg/mL
COc1c(O)ccc2c(=O)c3c(O)cc(O)cc3oc12,-,MIC,-,-,>25 µg/mL
CN1O[C@H](CSc2ccc([N+](=O)[O-])cc2)C[C@]1(c1ccc(Cl)cc1)n1ccnc1,-,MIC,ATCC10259,-,7 µg/mL
O=c1c2ccccc2cnn1Cc1n[nH]c(=S)n1-c1ccccc1,-,MIC,ATCC 10231,-,512 µg/mL
CC(C)=CCc1c(O)ccc2oc3cc(O)cc(O)c3c(=O)c12,-,MIC,-,-,>25 µg/mL
Cc1ncc([N+](=O)[O-])n1CCN1C(=O)S/C(=C/c2ccco2)C1=O,-,MIC,-,-,125 µg/mL
C[C@H](N)C(=O)N[C@@H](CB1OC2CC3CC(C3(C)C)[C@@]2(C)O1)Cc1ccccc1,agar,MIC,-,-,≤500 µg/mL
Cc1ncc([N+](=O)[O-])n1CCN1C(=O)S/C(=C/c2cccs2)C1=O,-,MIC,-,-,125 µg/mL
COc1cccc([C@]2(Cn3ccnc3)C[C@@H](CS(=O)c3ccc(Cl)cc3)ON2C)c1,-,MIC,ATCC10259,-,>70 µg/mL
COC1CC2CCC(C)C(O)(O2)C(=O)C(=O)N2CCCC2C(=O)OC(C(C)CC2CCC(O)C(OC)C2)CC(=O)C(C)/C=C(\C)C(O)C(OC)C(=O)C(C)CC(C)/C=C/C=C/C=C/1C,-,MIC,ATCC11651,-,0.3125 µg/mL
C=C1C(=O)OC2C3C4(OC4[C@H](O)[C@@]3(C)O)C(O)(O)C[C@@H](O)[C@@H]12,-,MIC,-,-,20 µg/mL
O[C@](Cn1cncn1)(Cn1cnc(/C=C/c2ccc(OCC(F)(F)C(F)F)cc2)n1)c1ccc(F)cc1F,-,MIC,CA505,-,0.9 µM
Cc1cc(Cl)[nH]c2ccc3c(=O)c(C(=O)NN4C(=O)C(Cl)C4c4ccccc4)cnc3c12,broth dilution,MIC,-,-,500 µg/mL
CC(C)N=C(N)c1ccc2nc(-c3ccc4c(c3)Cc3cc(-c5nc6ccc(C(N)=NC(C)C)cc6[nH]5)ccc3-4)[nH]c2c1,-,Geometric mean MIC,21 strains,-,1.56 µg/mL
Cc1ncc([N+](=O)[O-])n1CCn1c(-c2ccc(Cl)cc2)csc1=Nc1ccccc1,-,MIC,-,-,250 µg/mL
O=c1c2ccccc2cnn1Cc1n[nH]c(=S)n1Cc1ccccc1,-,MIC,ATCC 10231,-,128 µg/mL
C[C@@H](NC(=O)[C@@H](N)Cc1ccccc1)[C@@H](Cc1ccccc1)B1OC2CC3CC(C3(C)C)[C@@]2(C)O1,agar,MIC,-,-,≤500 µg/mL
CC(C)=CCC/C(C)=C/Cc1c(O)cc(O)c(C(=O)c2ccccc2)c1O,-,MIC,-,-,25 µg/mL
COc1cccc([C@]2(n3ccnc3)C[C@@H](CSc3ccc(Cl)cc3)ON2C)c1,-,MIC,ATCC10259,-,20 µg/mL
CC(C)=CCc1c(O)cc(O)c2oc3cccc(O)c3c(=O)c12,-,MIC,-,-,>25 µg/mL
Cc1cc(Cl)[nH]c2ccc3c(=O)c(C(=O)NN=Cc4cc([N+](=O)[O-])ccc4O)cnc3c12,broth dilution,MIC,-,-,200 µg/mL
CN1O[C@H](CSc2ccc(Cl)cc2)C[C@]1(c1ccc(F)cc1)n1ccnc1,-,MIC,ATCC10259,-,2 µg/mL
O=c1c2cc(O)ccc2oc2cc(O)cc(O)c12,-,MIC,-,-,>25 µg/mL

For reference, 3 entries again:

Cc1ncc([N+](=O)[O-])n1CCn1c(-c2ccc(Cl)cc2)csc1=Nc1ccccc1 ; measure: MIC ; value: 250 µg/mL
CN1O[C@H](CSc2ccc([N+](=O)[O-])cc2)C[C@]1(c1ccc(Cl)cc1)n1ccnc1 ; measure: MIC ; strain: ATCC10259 ; value: 7 µg/mL
O[C@](Cn1cncn1)(Cn1cnc(/C=C/c2ccc(OCC(F)(F)C(F)F)cc2)n1)c1ccc(F)cc1F ; measure: MIC ; strain: CA505 ; value: 0.9 µM

MIC50, MIC90 and the like: level of inhibition, or share of isolates inhibited. Blank or dashed fields: not listed here. Lines come from different laboratories, so protocols vary.